Reference: patent publication US11141410B2 (MERCK SHARP & DOHME CORP., priority 2015, dated 2021)

Protein sequences, listed by entry. Tags and fused reporters are not part of them. Residues count along the entry.
UniProt Q2G060, 1-351: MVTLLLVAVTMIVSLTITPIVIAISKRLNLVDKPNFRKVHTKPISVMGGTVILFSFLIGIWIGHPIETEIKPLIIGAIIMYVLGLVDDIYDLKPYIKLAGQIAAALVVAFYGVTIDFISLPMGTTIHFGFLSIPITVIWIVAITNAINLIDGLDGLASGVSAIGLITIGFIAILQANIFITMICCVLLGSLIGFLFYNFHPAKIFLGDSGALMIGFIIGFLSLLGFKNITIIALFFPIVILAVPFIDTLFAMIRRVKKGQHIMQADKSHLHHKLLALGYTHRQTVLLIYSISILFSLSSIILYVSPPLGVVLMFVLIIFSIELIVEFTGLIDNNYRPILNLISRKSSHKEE

What was measured:
TarO = TarO (Staphylococcus aureus, UniProt Q2G060); assay: TarO Biochemical Enzymatic Assay (LC-MS end point, C55-PP-GlcNAc (LIPID III) production); conditions: read-out: TARO inhibitor IC50; TarO membrane preparation derived from MRSA COL
MRSA COL (MB5393) = assay: TarO Inhibitor/β-Lactam Synergy Assay (growth, OD600); type: cell-based, Staphylococcus aureus; conditions: for MITC95 TarO inhibitor alone; Bacteria: SA_MB5393: >200 μM = 95% growth inhibition not achieved, 20 hours at 37° C.; for MITC95 TarO inhibitor + 4 μg/mL IPM; Bacteria: SA_MB5393: in combination with 4 μg/mL imipenem (IPM); for MITC95 TarO inhibitor + 8 μg/mL DCX; Bacteria: SA_MB5393: in combination with 8 μg/mL dicloxacillin (DCX)

Row | Compound | IC50 (TarO) | MITC95 TarO inhibitor alone; Bacteria: SA_MB5393 (MRSA COL (MB5393)) | MITC95 TarO inhibitor + 4 μg/mL IPM; Bacteria: SA_MB5393 (MRSA COL (MB5393)) | MITC95 TarO inhibitor + 8 μg/mL DCX; Bacteria: SA_MB5393 (MRSA COL (MB5393))
1 | COc1ccccc1CNC(=O)N1C(=O)O[C@H](c2cc(C(F)(F)F)cc(C(F)(F)F)c2)[C@@H]1CO | 200 nM | >200 µM | 0.03 µM | 0.13 µM
2 | CCOc1cc(C(F)(F)F)cc([C@H]2OC(=O)N(C(=O)NCc3cccc4cncnc34)[C@H]2C)n1 | 10 nM | >200 µM | 0.19 µM | 0.72 µM
3 | C=CCOc1cc(C(F)(F)F)cc([C@H]2OC(=O)N(C(=O)NCc3cncc4ccccc34)[C@H]2C)n1 | 60 nM | >200 µM | 0.20 µM | 0.20 µM
